Data reported in US20140011700.
For at least one entry, the source does not settle the construct or the ends of the probe.

Target: Influenza A nucleoprotein (NP) (Influenza A virus (A/WSN/33, H1N1)) (UniProt P15682)
Assay: SPR
Details: 2'-OMe (stated as 2-O-methylated, positions not specified); purified recombinant protein; label: 5'-biotin

UAGAAACAAGGGUGUUUUUUCAGAUCUAUUAAACUUCACCCUGCUUUUGCU [biotinylated 2'-O-methylated RNA oligonucleotide]
Kd: 10.2 nM
